This is an account of results in US20120225837A1, “MEDICINAL AGENT FOR DISEASE ASSOCIATED WITH EPSTEIN-BARR VIRUS, AND METHOD FOR SCREENING OF THE MEDICINAL AGENT” (Kyoto University, priority 2007, published 2012).

In this series the test system is 143B/EB virus-TK cells. As to conditions: ratio of CC50 in 143B/hu-TK to CC50 in 143B/EB virus-TK. The text has this: At first, a primer was designed on the basis of the data base information of NCBI, followed by extracting DNA from B95a cells (J. Virol. 1990; 64(2): 700-5), and the TK gene of an EB virus was amplified by PCR method and cloned in the multicloning site of an expression plasmid vector pCI-neo (pCI-EB-TKneo). Similarly, human-TK gene was also amplified by PCR method and cloned (pCI-huTKneo). Whether the cloned gene fragment was a desired gene or not was judged by determining the base sequence.
Then, TK-defect human osteosarcoma cells (143B) was transfected by lipofection method (Proc. Natl. Acad. Sci. USA 1987 November; 84(21): 7413-7) with the plasmid vector capable of expressing EB virus-TK gene or the plasmid vector capable of expressing human-TK gene, namely, pCI-EB-TKneo or pCI-huTKneo, and cells having each plasmid introduced therein were selected by the use of neomycin.
The drug sensitivity of 143B/EB virus-TK, 143B/hu-TK, 143B TK(−) cells and EB virus persistent infection cells was determined on the basis of the cytotoxicity of each drug. That is, cells (143B/EB virus-TK, 143B/hu-TK and 143B TK(−) cells: 5×10^4 cells/100 μl; EB virus persistent infection cells: 20×10^4 cells/100 μl) were added to 96-well flat-bottom culture plates containing 100 μl of various concentrations of each drug. After 5 days of culture, the number of surviving cells was determined by MTT [3-(4,5-dimethylthiazol-2-yl)-2,5-diphenyltetrazolium bromide] assay. The cytotoxicity of the test drugs is expressed in terms of a concentration (CC50) at which the cell viability was decreased to 50%.

Where two headings read alike, the source gives them in different places.

For the compound `O=c1[nH]c(=O)n([C@H]2C[C@H](O)[C@@H](CO)O2)cc1F` [5FdU, 5-fluoro-2′-deoxyuridine], the “SI (selection index)” value was found to be 0.7.
For the compound `O=c1[nH]c(=O)n([C@H]2C[C@H](O)[C@@H](CO)O2)cc1C=CBr` [BVDU, 5-bromovinyl-2′-deoxyuridine], the “SI (selection index)” value is on record as more than 2.5.
Consider `Cc1cn([C@@H]2S[C@H](CO)[C@@H](O)[C@@H]2F)c(=O)[nH]c1=O` [Medicinal agent of the invention, 1-(2-deoxy-2-fluoro-4-thio-β-D-arabinofuranosyl)-5-methyluracil], for which the “SI (selection index)” value is given as more than 2700. Moreover, for the setting “listed as medicinal agent of the present invention”, the “SI (selection index)” value was “more than 2700”.
